The target of experiment [1] is gp120 from CC1/85 cl.7 (HIV-1).
In experiment [2] the target is gp120 from D1/85.16 cl.23 (HIV-1).

We go through one substance from article PMC2718843.

On to “CD4-IgG2 (PRO542) (from UniProt P01730) (Fc fusion)”, for which the IC50 for inhibition of replication of the clonal virus in PBMC (p24 antigen); inhibits gp120-CD4 binding in experiment [1] stood at 0.12 µg/mL; in experiment [2], 8 µg/mL.
